From patent US20220249576A1 (priority 2021, published 2022)

Test system: A. flavus
Experiment: Treatment with endocytosis inhibitors: effect on aflatoxin production
Assay type: cell-based, Aspergillus flavus
Conditions: filipin 3 μM, natamycin 6 μM; 40 h mycelia

For CCCCC[C@@H](O)[C@H]1C(=O)O[C@H](C)[C@@H](O)/C=C/C=C/C=C/C=C/C=C(\C)[C@@H](O)C[C@H](O)C[C@H](O)C[C@H](O)C[C@H](O)C[C@H](O)C[C@@H]1O [filipin], the “aflatoxin production compared to untreated control (A. flavus + the exemplary composition)” value was “increase aflatoxin production”.
